# Data from paper PMC11586414, “Structural insight into the distinct regulatory mechanism of the HEPN–MNT toxin-antitoxin system in Legionella pneumophila” (Nature Communications, 2024).
# B1: HEPN^Lpg Q64A (natural protein)
# chain: MTNIDVRWQQRLNNYARALQQLSLAVNLAQTRPLSDLEKQGLIQAFEFTHELAWNVMKDYFFFAGNSAITGSRDATRESFNKGLIKEGEIWMEMIKSRNQTSHTYNQSVADEIVKNIINFYHTSFQAFLEKMQGLKEHE
# B2: HEPN^Lpg R73A (natural protein)
# chain: MTNIDVRWQQRLNNYARALQQLSLAVNLAQTRPLSDLEKQGLIQAFEFTHELAWNVMKDYFFFQGNSAITGSADATRESFNKGLIKEGEIWMEMIKSRNQTSHTYNQSVADEIVKNIINFYHTSFQAFLEKMQGLKEHE
# Target: the molecule itself
# Experiment: AUC
row,Protein,stoichiometry N
1,B1,2
2,B2,2
